Assay results taken from patent publication US20020082384A1 (priority 2000, published 2002).

Assay: general procedure: Fmoc solid-phase peptide synthesis; Wang resin (polystyrene-based, hydroxymethylphenoxyacetic acid linker), 0.57 mmole/g; DCI (N,N'-diisopropylcarbodiimide)/HOBt
Details: oxidative folding step

B1: hu-I-309 (peptide, UniProt P22362 24-96, looked up)
C-C motif chemokine 1: KSMQVPFSRCCFSFAEQEIPLRAILCYRNTSSICSNEGLIFKLKRGKEACALDTVGWVQRHRKMLRHCPSKRK
In the case of B1, the oxidative folding yield is reported as “almost 25%”.
